Pooled drug test results. Numbers come from NIAID ChemDB, via PubChem.

Common to all: growth or infection tests; species: Mycobacterium avium; measure: MIC

Two numbers with a dash give a range or band. Lines come from different laboratories, so protocols vary. An empty or dashed field is not shown.

{"SMILES": "O=C(O)c1cccc2c(=O)c3ccccc3oc12", "strain or isolate": "SN 304", "result": ">32 µg/mL"}
{"SMILES": "CN(C)c1ccc(-n2c(=O)oc3ccccc3c2=O)cc1", "strain or isolate": "MY330/88", "result": ">125 µM"}
{"SMILES": "O=C(Nc1ccc(C(F)(F)F)cc1)c1cc(Br)ccc1OP(=O)(c1ccccc1)c1ccccc1", "setting": "14 d", "strain or isolate": "MY330/88", "result": "16 µM"}
{"SMILES": "O=C(O)c1cc([N+](=O)[O-])c2oc3ccc([N+](=O)[O-])cc3c(=O)c2c1", "strain or isolate": "SN 304", "result": ">32 µg/mL"}
{"SMILES": "N#Cc1cc(SCc2ccncc2)ccn1", "strain or isolate": "MY330/88", "result": "1000 µM"}
{"SMILES": "N[C@H]1CCN(c2nc3c(cc2F)c(=O)c(C(=O)O)cn3C2CC2)C1", "strain or isolate": "I", "result": "4 µg/mL"}
{"SMILES": "CCn1cc(C(=O)O)c(=O)c2cc(F)c(N3CCNCC3)cc21", "strain or isolate": "PI2/8", "result": "1 µg/mL"}
{"SMILES": "CCCCCCCCCSC[C@@H]1N[C@H](CO)[C@@H](O)[C@@H]1O", "strain or isolate": "3 to 5 strains", "result": "32–128 µg/mL"}
{"SMILES": "CCc1cc(C(N)=S)ccn1", "strain or isolate": "1435", "result": ">8 µg/mL"}
{"SMILES": "CC[C@H]1OC(=O)[C@H](C)[C@@H](O[C@H]2C[C@@](C)(OC)[C@@H](O)[C@H](C)O2)[C@H](C)[C@@H](O[C@@H]2O[C@H](C)C[C@H](N(C)C)[C@H]2O)[C@](C)(OC)C[C@@H](C)C(=O)[C@H](C)[C@@H](O)[C@]1(C)O", "strain or isolate": "A5", "result": "≤0.13 µg/mL"}
{"SMILES": "CCn1cc(C(=O)O)c(=O)c2cc(F)c(N3CCS(=O)CC3)c(F)c21", "strain or isolate": "PI4/44", "result": "16 µg/mL"}
{"SMILES": "CCCCCCCCCCCCSC[C@H]1[C@@H](O)[C@H](O)[C@@H](CO)N1Cc1ccccc1", "strain or isolate": "3 to 5 strains", "result": "64–128 µg/mL"}
{"SMILES": "CC1CN(c2c(F)c(N)c3c(=O)c(C(=O)O)cn(C4CC4)c3c2F)CCN1C", "strain or isolate": "SMD", "result": "0.5 µg/mL"}
{"SMILES": "CO[C@H]1/C=C/O[C@@]2(C)Oc3c(C)c(O)c4c(O)c(c5c(c4c3C2=O)NC2(CCN(CC(C)C)CC2)N=5)=NC(=O)/C(C)=C\\C=C\\[C@H](C)[C@H](O)[C@@H](C)[C@@H](O)[C@@H](C)[C@H](OC(C)=O)[C@@H]1C", "strain or isolate": "Isolate 90-1799", "result": ">1 µg/mL"}
{"SMILES": "NC1CCN(c2c(F)cc3c(=O)c(C(=O)O)cn(C4CC4)c3c2F)C1", "strain or isolate": "PI4/44", "result": "8 µg/mL"}
{"SMILES": "CC12CCC(C3=C(C1=O)[Se](=O)C1=C(O3)C3CCC(C)(C1=O)C3(C)C)C2(C)C", "result": "33.98 µg/mL"}
{"SMILES": "O=C(O)c1cn(C2CC2)c2c(F)c(N3CCN4CCC3C4)c(F)cc2c1=O", "strain or isolate": "SMD", "result": "1 µg/mL"}
{"SMILES": "Cc1ccc2c(=O)c3ccccc3oc2c1", "strain or isolate": "SN 304", "result": ">32 µg/mL"}
{"SMILES": "O=C(O)c1cn(C2CC2)c2c(Cl)c(N3C[C@@H]4CCCN[C@@H]4C3)c(F)cc2c1=O", "strain or isolate": "I", "result": "1 µg/mL"}
{"SMILES": "CCCCCCCCCCC(C)C(=O)O[C@@H]1[C@H](OC)[C@@H]([C@@H](C[C@H]2OC(C(=O)N[C@H]3CCC[C@@H](C)NC3=O)=C[C@H](O)[C@@H]2O)C(N)=O)O[C@H]1n1ccc(=O)[nH]c1=O", "strain or isolate": "HIHJ 1605", "result": "1 µg/mL"}
{"SMILES": "O=[N+]([O-])c1ccc(C2=NOC(c3ccc(N4CCN(Cc5ccccc5)CC4)cc3)C2)o1", "strain or isolate": "ATCC 25291", "result": "12.5 µg/mL"}
{"SMILES": "Nc1ccc2oc3ccc(C(=O)O)cc3c(=O)c2c1", "strain or isolate": "SN 304", "result": ">32 µg/mL"}
{"SMILES": "CC[C@H]1C[C@H]2C[C@H]3c4[nH]c5ccc(OC)cc5c4CCN(C2)[C@@H]13", "strain or isolate": "Isolate 733 HIV-positive", "result": ">200 µg/mL"}
{"SMILES": "CCn1cc(C(=O)O)c(=O)c2ccc(C)nc21", "strain or isolate": "3 strains", "result": "128 µg/mL"}
{"SMILES": "c1ccc2c(CSc3nc4ccccc4o3)cccc2c1", "strain or isolate": "MY330/88", "result": "125 µM"}
{"SMILES": "Cc1ccc(-n2c(=O)[nH]c3ccccc3c2=O)cc1C", "strain or isolate": "MY330/88", "result": "250 µM"}
{"SMILES": "Cc1cc(CN2CCN(C)CC2)c(C)[nH]1", "strain or isolate": "103317", "result": ">64 µg/mL"}
{"SMILES": "O=C(O)c1cn(C2CC2)c2c(F)c(N3CCC(N4CCCC4)C3)c(F)cc2c1=O", "strain or isolate": "PI2/8", "result": "1 µg/mL"}
{"SMILES": "Cc1cc(CN2CCOCC2)c(C)n1Cc1ccccc1", "strain or isolate": "103317", "result": ">64 µg/mL"}
{"SMILES": "O=C(Nc1ccc(Cl)c(Cl)c1)c1cc(Cl)ccc1OP(=O)(OCc1ccccc1)OCc1ccccc1", "setting": "14 d", "strain or isolate": "MY330/88", "result": "125 µM"}
{"SMILES": "CO[C@H]1/C=C/O[C@@]2(C)Oc3c(C)c(O)c4c(O)c(c(/C=N/N5CCN(C)CC5)c(O)c4c3C2=O)NC(=O)/C(C)=C\\C=C\\[C@H](C)[C@H](O)[C@@H](C)[C@@H](O)[C@@H](C)[C@H](OC(C)=O)[C@@H]1C", "strain or isolate": "5-74", "result": "10 µg/mL"}
{"SMILES": "O=C(Nc1ccc(Br)cc1)c1cc(Cl)ccc1OP(=O)(Oc1ccccc1)Oc1ccccc1", "setting": "14 d", "strain or isolate": "MY330/88", "result": "16 µM"}
{"SMILES": "CCC(CO)NC[C@@H]1N[C@H](CO)[C@@H](O)[C@@H]1O", "strain or isolate": "3 to 5 strains", "result": ">128 µg/mL"}
{"SMILES": "C[C@@H]1CN(c2c(F)c(N)c3c(=O)c(C(=O)O)cn(C4CC4)c3c2F)C[C@H](C)N1", "strain or isolate": "MTCC1723", "result": "0.08 µg/mL"}
{"SMILES": "CCCCCCCCN1[C@H](CO)[C@@H](O)[C@H](O)[C@@H]1CO", "strain or isolate": "3 to 5 strains", "result": ">128 µg/mL"}
{"SMILES": "O=C(Nc1ccccc1)c1ccccc1OP(=O)(Oc1ccccc1)c1ccccc1", "setting": "7 d", "strain or isolate": "MY330/88", "result": "250 µM"}
{"SMILES": "NC1CCCCN(c2c(F)cc3c(=O)c(C(=O)O)cn(C4CC4)c3c2F)C1=O", "strain or isolate": "PI4/44", "result": "4 µg/mL"}
{"SMILES": "Cc1[nH]c(C)c(CN2CCN(C)CC2)c1CN1CCN(C)CC1", "strain or isolate": "103317", "result": ">64 µg/mL"}
{"SMILES": "CN[C@@H]1[C@@H](O)[C@@H](O[C@@H]2[C@@H](O)[C@H](O[C@H]3O[C@H](CN)CC[C@H]3N)[C@@H](N)C[C@H]2N)OC[C@]1(C)O", "strain or isolate": "SN 304", "result": ">32 µg/mL"}
{"SMILES": "c1cncc(-c2ncc(-c3ccc4c(c3)OCO4)o2)c1", "strain or isolate": "Isolate 733 HIV-positive", "result": "25 µg/mL"}
{"SMILES": "O=C(Nc1ccc(Cl)c(Cl)c1)c1cc(Cl)ccc1OP(=O)(c1ccccc1)c1ccccc1", "setting": "14 d", "strain or isolate": "MY330/88", "result": "32 µM"}
{"SMILES": "O=C(Nc1cccc([N+](=O)[O-])c1)c1ccccc1O", "strain or isolate": "MY330/88", "result": ">31 µM"}
{"SMILES": "CNC(C)C1CCN(c2c(F)c(N)c3c(=O)c(C(=O)O)cn(C4CC4)c3c2OC)C1", "strain or isolate": "PI4/44", "result": "8 µg/mL"}
{"SMILES": "O=c1[nH]c2ccccc2c(=O)n1-c1ccccc1", "strain or isolate": "MY330/88", "result": ">500 µM"}
{"SMILES": "NC(=O)c1ccc2c(=O)c3ccccc3oc2c1", "strain or isolate": "SN 304", "result": ">16 µg/mL"}
{"SMILES": "CC(C)(C)n1cc(C(=O)O)c(=O)c2cc(F)c(N3CCNCC3)nc21", "strain or isolate": "PI4/44", "result": "1 µg/mL"}
{"SMILES": "CC(C)(C)c1ccc(CNc2ccc(N3CCOCC3)cc2)cc1", "strain or isolate": "103317", "result": "2 µg/mL"}
{"SMILES": "CC[C@H]1OC(=O)[C@H](C)[C@@H](O[C@H]2C[C@@](C)(OC)[C@@H](O)[C@H](C)O2)[C@H](C)[C@@H](O[C@@H]2O[C@H](C)C[C@H](N(C)C)[C@H]2O)[C@](C)(OC)C[C@@H](C)C(=O)[C@H](C)[C@@H](O)[C@]1(C)O", "strain or isolate": "LR114R", "result": "0.12 µg/mL"}
{"SMILES": "CC(C)N=c1cc2n(-c3ccc(Cl)cc3)c3ccccc3nc-2cc1Nc1ccc(Cl)cc1", "strain or isolate": "3011-C clarithromycin-resistant", "result": "0.12 µg/mL"}
{"SMILES": "CCCCCCCCOC(=O)O[C@@H]1[C@H](OC)[C@@H]([C@@H](C[C@H]2OC(C(=O)N[C@H]3CCC[C@@H](C)NC3=O)=C[C@H](O)[C@@H]2O)C(N)=O)O[C@H]1n1ccc(=O)[nH]c1=O", "strain or isolate": "HIHJ 1605", "result": "0.25 µg/mL"}
{"SMILES": "c1ccc2c(c1)n1[se]n21", "result": "915 µg/mL"}
{"SMILES": "CC[C@@H]1C(=O)OC[C@@H]1Cc1cncn1C", "strain or isolate": "Isolate 733 HIV-positive", "result": ">200 µg/mL"}
{"SMILES": "N#Cc1cccc2oc3ccccc3c(=O)c12", "strain or isolate": "SN 304", "result": ">16 µg/mL"}
{"SMILES": "CC[C@H]1OC(=O)[C@H](C)[C@@H](O[C@H]2C[C@@](C)(OC)[C@@H](O)[C@H](C)O2)[C@H](C)[C@@H](O[C@@H]2O[C@H](C)C[C@H](N(C)C)[C@H]2O)[C@](C)(O)C[C@@H](C)CN(C)[C@H](C)[C@@H](O)[C@]1(C)O", "strain or isolate": "1435-C clarithromycin-resistant", "result": ">512 µg/mL"}
{"SMILES": "Cc1ccc(-n2c(=O)oc3ccccc3c2=O)cc1", "strain or isolate": "MY330/88", "result": "62 µM"}
{"SMILES": "Cc1ccc2nc(SCc3ccncc3)[nH]c2c1", "strain or isolate": "MY330/88", "result": "125 µM"}
{"SMILES": "CCCCCCCCCCCCS(=O)(=O)C[C@@H]1N[C@H](CO)[C@@H](O)[C@@H]1O", "strain or isolate": "3 to 5 strains", "result": "32–128 µg/mL"}
{"SMILES": "O=c1[nH]c2ccccc2c(=O)n1-c1ccc(F)cc1", "strain or isolate": "MY330/88", "result": ">125 µM"}
{"SMILES": "c1cncc(CSc2ncn[nH]2)c1", "strain or isolate": "MY330/88", "result": "1000 µM"}
{"SMILES": "O=[N+]([O-])c1cn2c(n1)OC[C@@H](OCc1ccc(OC(F)(F)F)cc1)C2", "strain or isolate": "ATCC 25291", "result": "3.12 µg/mL"}
{"SMILES": "COc1ccc(-n2c(=O)[nH]c3ccccc3c2=O)cc1", "strain or isolate": "MY330/88", "result": ">500 µM"}
{"SMILES": "Cc1c(CN2CCN(C)CC2)c(CN2CCN(C)CC2)c(C)n1Cc1ccccc1", "strain or isolate": "103317", "result": ">64 µg/mL"}
{"SMILES": "CCn1cc(C(=O)O)c(=O)c2ccc(N3CC(O)C(O)C(O)C3)nc21", "strain or isolate": "PI4/44", "result": ">32 µg/mL"}
{"SMILES": "Cc1ccc2nc(SCc3cccc4ccccc34)[nH]c2c1", "strain or isolate": "MY330/88", "result": "62.5 µM"}
{"SMILES": "O=C(Nc1cccc(F)c1)c1ccccc1O", "strain or isolate": "MY330/88", "result": "62 µM"}
{"SMILES": "NCC[C@H](O)C(=O)N[C@@H]1C[C@H](N)[C@@H](O[C@H]2O[C@H](CN)[C@@H](O)[C@H](O)[C@H]2O)[C@H](O)[C@H]1O[C@H]1O[C@H](CO)[C@@H](O)[C@H](N)[C@H]1O", "strain or isolate": "A5", "result": "1 µg/mL"}
{"SMILES": "CN1CCN(c2ccccc2NCc2cccc3ccccc23)CC1", "strain or isolate": "103317", "result": ">16 µg/mL"}
{"SMILES": "O=C1c2cc(Br)ccc2OP(=O)(c2ccccc2)N1c1ccc(C(F)(F)F)cc1", "setting": "7 d", "strain or isolate": "MY330/88", "result": "8 µM"}
{"SMILES": "Cc1c(CN2CCSCC2)cc(-c2ccc(F)cc2)n1-c1ccc(Cl)cc1", "strain or isolate": "103317", "result": ">16 µg/mL"}
{"SMILES": "COc1ccc2ccc(=O)oc2c1CC(=O)C(C)C", "strain or isolate": "Isolate 733 HIV-positive", "result": ">200 µg/mL"}
{"SMILES": "Cc1c(CN2CCN(C)CC2)c(CN2CCN(C)CC2)c(-c2ccc(Cl)cc2)n1Cc1ccccc1", "strain or isolate": "103317", "result": ">64 µg/mL"}
{"SMILES": "N#Cc1cc(SCc2ccccn2)ccn1", "strain or isolate": "MY330/88", "result": "125 µM"}

Repeating the first 9 entries:

SMILES,setting,strain or isolate,result
O=C(O)c1cccc2c(=O)c3ccccc3oc12,-,SN 304,>32 µg/mL
CN(C)c1ccc(-n2c(=O)oc3ccccc3c2=O)cc1,-,MY330/88,>125 µM
O=C(Nc1ccc(C(F)(F)F)cc1)c1cc(Br)ccc1OP(=O)(c1ccccc1)c1ccccc1,14 d,MY330/88,16 µM
O=C(O)c1cc([N+](=O)[O-])c2oc3ccc([N+](=O)[O-])cc3c(=O)c2c1,-,SN 304,>32 µg/mL
N#Cc1cc(SCc2ccncc2)ccn1,-,MY330/88,1000 µM
N[C@H]1CCN(c2nc3c(cc2F)c(=O)c(C(=O)O)cn3C2CC2)C1,-,I,4 µg/mL
CCn1cc(C(=O)O)c(=O)c2cc(F)c(N3CCNCC3)cc21,-,PI2/8,1 µg/mL
CCCCCCCCCSC[C@@H]1N[C@H](CO)[C@@H](O)[C@@H]1O,-,3 to 5 strains,32–128 µg/mL
CCc1cc(C(N)=S)ccn1,-,1435,>8 µg/mL